Results of unrelated studies side by side (data: NIAID ChemDB).

Common to all: growth or infection tests; agent: Mycobacterium tuberculosis

An empty or dashed field is not shown.

smiles,strain or isolate,conditions,read-out,cell line,dose,changes,method,value
O=C(N/N=C/c1ccccc1F)c1ccncc1,H37Rv (ethionamide-resistant),-,MIC,-,-,-,-,>32 µg/mL
CCOC(=O)Nc1cc(N[C@@H](C)[C@H](C)c2ccccc2)c([N+](=O)[O-])c(N)n1,H37Rv,-,EC50,-,-,-,-,>12.5 µg/mL
NC1CCN(c2c(F)cc3c(=O)c(C(=O)O)cn(C4CC4)c3c2Cl)C1,MDR,-,MIC90,-,-,-,-,2 µg/mL
COc1ccccc1CSc1ncnc2nc[nH]c12,H37Ra,-,MIC,-,-,-,-,>12.8 µg/mL
CCc1nc2ccc(C)cc2n1CCCCSc1ccc(OC)cc1,H37Rv,-,fold resistance,-,-,Rv1339 V90M,turbidity / fluorescence,1.1
COC(=O)C1(C(=O)OC)OC(c2ccccc2)C2C(=O)N(C)C(=O)C21,H37Rv,-,MIC bound,-,-,-,BACTEC,>12.5 µg/mL
CO[C@H]1/C=C/O[C@@]2(C)Oc3c(C)c(O)c4c(O)c(c5c(c4c3C2=O)NC2(CCN(CC(C)C)CC2)N=5)=NC(=O)/C(C)=C\C=C\[C@H](C)[C@H](O)[C@@H](C)[C@@H](O)[C@@H](C)[C@H](OC(C)=O)[C@@H]1C,3147 (rifampin-sensitive),-,MBC,-,-,-,-,0.025 µg/mL
Clc1cc2nn(C3CCCCO3)nc2cc1Cl,H37Rv,-,inhibition,-,6.25 µg/mL,-,BACTEC,1%
CCc1nc2ccccc2n1CCCCOc1ccc(Cl)cc1,H37Rv,-,MIC90,-,-,Rv1339 V90M,turbidity / fluorescence,13 µM
CO[C@H]1/C=C/O[C@@]2(C)Oc3c(C)c(O)c4c(O)c(c(/C=N/N5CCN(C)CC5)c(O)c4c3C2=O)NC(=O)/C(C)=C\C=C\[C@H](C)[C@H](O)[C@@H](C)[C@@H](O)[C@@H](C)[C@H](OC(C)=O)[C@@H]1C,TN1595,-,MIC,-,-,-,-,>32 µg/mL
CC1COc2c(N3CCN(C)CC3)c(F)cc3c(=O)c(C(=O)O)cn1c23,DRUG-SUS,-,MIC50,-,-,-,-,0.5 µg/mL
CC(=O)n1nc(C)c(-c2onc3ccc(Cl)cc23)c1C,H37Rv,-,MIC bound,-,-,-,BACTEC,>12.5 µg/mL
CCOC(=O)Nc1cc(N)c2[nH]c(C)nc2n1,H37Rv,-,EC50,-,-,-,-,>12.5 µg/mL
CN1S(=O)(=O)N(C)P12(N=P(CP(=NP13(N(C)S(=O)(=O)N1C)N(C)S(=O)(=O)N3C)(c1ccccc1)c1ccccc1)(c1ccccc1)c1ccccc1)N(C)S(=O)(=O)N2C,H37Rv,-,MIC bound,-,-,-,BACTEC,>12.5 µg/mL
C[C@H]1C[C@H](N)CN1c1cc2c(cc1F)c(=O)c(C(=O)O)cn2-c1ccc(F)cc1F,MDR,-,MBC90,-,-,-,-,>8 µg/mL
COc1ccc(CNCCNC[C@]2(C)CCC[C@]3(C)c4ccc(C(C)C)cc4CC[C@@H]23)c(OC)c1,-,-,MIC,-,-,-,-,25 µM
CC(C)(CO)NCCNCCc1c[nH]c2ccccc12,-,-,MIC,-,-,-,-,25 µM
Clc1ccc(CCNCCNC2CCc3ccccc32)c(Cl)c1,-,-,MIC,-,-,-,-,50 µM
Clc1nc(Sc2ncc[nH]2)c2[nH]cnc2n1,H37Rv,-,inhibition,-,6.25 µg/mL,-,-,5%
CCOC(=O)Nc1cc(N)c2c(n1)OCC(c1cccc(OC)c1)=N2,H37Rv,-,inhibition,-,12.5 µg/mL,-,-,0%
COc1ccc(CNCCNCCc2ccc(F)cc2)cc1OC,-,-,MIC,-,-,-,-,50 µM
CO/C(C)=C1/NC(=O)[C@H]([C@@H](C)O)NC(=O)c2csc(n2)-c2cc(O)c(-c3nc(C(=O)NCCCN4CCOCC4)cs3)nc2-c2csc(n2)[C@@H]2COC(=O)c3c4c5c(cccc5n3O)COC(=O)[C@@H](O[C@H]3C[C@](C)(O)[C@H](N(C)C)[C@H](C)O3)[C@@H](OC4)[C@H](NC(=O)c3csc1n3)c1nc(cs1)C(=O)N2,H37Rv,-,MIC,-,-,-,broth dilution,≤2.5 µM
C[C@@H]1CN(c2c(F)c(N)c3c(=O)c(C(=O)O)cn(C4CC4)c3c2F)C[C@H](C)N1,ATCC 35820,-,MBC,-,-,-,-,0.06 µg/mL
CC(C)(C)CC(C)(C)NCCNc1cccc2ncccc12,-,-,MIC,-,-,-,-,3.13 µM
O=C1NC(=O)[C@@]2(CC[C@@H](O)C2)c2ccncc21,H37Rv,-,MIC,-,-,-,BACTEC,≥12.5 µg/mL
CO[C@H]1/C=C/O[C@@]2(C)Oc3c(C)c(O)c4c(O)c(c(/C=N/N5CCN(C6CCCC6)CC5)c(O)c4c3C2=O)NC(=O)/C(C)=C\C=C\[C@H](C)[C@H](O)[C@@H](C)[C@@H](O)[C@@H](C)[C@H](O)[C@@H]1C,Isolate 900216 drug-susceptible,-,MIC,-,-,-,-,0.25 µg/mL
Clc1ccc(Sc2nc(Cl)nc3nc[nH]c23)cc1,H37Ra,-,MIC,-,-,-,-,>12.8 µg/mL
CC(NNC(=O)c1ccncc1)c1ccc(F)cc1,H37Rv (ethionamide-resistant),-,MIC,-,-,-,-,>31.25 µg/mL
CC(=O)NC[C@H]1CN(c2ccc(N3CCOCC3)c(F)c2)C(=O)O1,2S,-,MIC,-,-,-,-,0.5 µg/mL
C=C(NC(=O)c1csc(-c2nc3c(cc2O)-c2nc(cs2)C(=O)N[C@@H]([C@@H](C)O)C(=O)N/C(=C(\C)OC)c2nc(cs2)C(=O)N[C@@H]2c4nc(cs4)C(=O)N[C@@H](COC(=O)c4c5c6c(cccc6n4O)COC(=O)[C@@H](O[C@H]4C[C@](C)(O)[C@H](N(C)C)[C@H](C)O4)[C@H]2OC5)c2nc-3cs2)n1)C(N)=O,Clinical isolate 11677,-,MIC,-,-,-,broth dilution,≤25 µM
CCOC(=O)Nc1cc(N(C)/N=C/c2ccccc2)c([N+](=O)[O-])c(Cl)n1,H37Rv,-,inhibition,-,12.5 µg/mL,-,-,0%
O=c1nc(SCc2cccnc2)c2[nH]cnc2[nH]1,H37Ra,-,MIC,-,-,-,-,>12.8 µg/mL
CC(C)=CCC/C(C)=C/CNCCNC(C)(C)CC(C)(C)C,-,-,MIC,-,-,-,-,25 µM
CCCCCCCCCCCNCCNCc1ccc(C(F)(F)F)cc1,-,-,MIC,-,-,-,-,25 µM
COc1cc2c(oc(=O)c3cc(C)cc(OC)c32)c2c(C3OC(C)C(O)C(C)(O)C3O)ccc(O)c12,ETA-R,-,MIC,-,-,-,-,12.5 µg/mL
CO[C@H]1/C=C/O[C@@]2(C)Oc3c(C)c(O)c4c(O)c(c(/C=N/N5CCN(C)CC5)c(O)c4c3C2=O)NC(=O)/C(C)=C\C=C\[C@H](C)[C@H](O)[C@@H](C)[C@@H](O)[C@@H](C)[C@H](OC(C)=O)[C@@H]1C,Clinical isolate 7791,-,MIC,-,-,Isoniazid-resistant,broth dilution,≤1 µM
CC(CNC[C@@H]1CC[C@H]2C[C@@H]1C2(C)C)NC1CCCCCCC1,-,-,MIC,-,-,-,-,25 µM
CC[C@H]1OC(=O)[C@H](C)[C@@H](O[C@H]2C[C@@](C)(OC)[C@@H](O)[C@H](C)O2)[C@H](C)[C@@H](O[C@@H]2O[C@H](C)C[C@H](N(C)C)[C@H]2O)[C@](C)(OC)C[C@@H](C)C(=O)[C@H](C)[C@@H](O)[C@]1(C)O,ATCC35838,-,MIC,-,-,-,-,8 µg/mL
COc1ccccc1Sc1nc(Cl)nc2nc[nH]c12,H37Rv,-,MIC90,-,-,-,-,>6.25 µg/mL
CCCCC(CC)CN1CN(CC(CC)CCCC)CC(C)(NCCNC(CC)CC)C1,-,-,MIC,-,-,-,-,25 µM
Nc1nc(N)c(N=Nc2c(Br)cc(S(N)(=O)=O)cc2Br)c(=O)[nH]1,H37Rv,-,inhibition,-,12.5 µg/mL,-,BACTEC,11%
CC(NNC(=O)c1ccncc1)c1cccc(C(F)(F)F)c1,H37Rv,-,MBC,-,-,-,-,25 µg/mL
CCc1nc2ccc(C)cc2n1CCCNc1ccc(Br)c(C)c1,H37Rv,-,fold resistance,-,-,QcrB M342T,turbidity / fluorescence,>152
COc1cccc(CSc2ccccn2)c1,H37Rv,-,MIC90,-,-,-,-,>6.25 µg/mL
CCOC(=O)C=C(c1ccc(OC)c(OC)c1)c1ccc(OC)c(OC)c1,H37Rv,-,inhibition,-,12.5 µg/mL,-,BACTEC,0%
Cc1ccc(Sc2ncccn2)cc1,H37Rv,-,inhibition,-,6.25 µg/mL,-,-,0%
CCOc1ccc2nc(N=NC(C(C)=O)C(C)=O)sc2c1,H37Rv,-,inhibition,-,6.25 µg/mL,-,resazurin,10%
CCOc1ccccc1CNCCNCc1ccc(OC(F)(F)F)cc1,-,-,MIC,-,-,-,-,50 µM
CNP1(NC)=N[P@](NC)(N2CC2)=N[P@@](NC)(N2CC2)=N1,H37Rv,-,MIC,-,-,-,BACTEC,≥128 µg/mL
CN1c2ccccc2CCC1CCc1ccc2c(c1)OCO2,MT7,-,MIC,-,-,-,-,50 µg/mL
Cl.NCCN1C(=O)S/C(=C/c2ccccc2)C1=O,H37Rv,-,MIC bound,-,-,-,BACTEC,>12.5 µg/mL
COc1ccccc1Sc1ccncc1,H37Ra,-,MIC,-,-,-,-,>12.8 µg/mL
NNC(=O)c1ccncc1,Clinical isolate 30034,-,MIC,-,-,-,broth dilution,≤1 µM
COc1ccc(CNCCNCC(c2ccccc2)c2ccccc2)c(OC)c1,-,-,MIC,-,-,-,-,25 µM
CC1(C)CC2CC(C)(CN2CCNCC(c2ccccc2)c2ccccc2)C1,-,-,MIC,-,-,-,-,37.5 µM
CO[C@H]1/C=C/O[C@@]2(C)Oc3c(C)c(O)c4c(O)c(c(/C=N/N5CCN(C)CC5)c(O)c4c3C2=O)NC(=O)/C(C)=C\C=C\[C@H](C)[C@H](O)[C@@H](C)[C@@H](O)[C@@H](C)[C@H](OC(C)=O)[C@@H]1C,4S,-,MIC,-,-,-,-,1 µg/mL
CC(NNC(=O)c1ccncc1)c1ccc(Cl)c(Cl)c1,Rifampicin-resistant,-,MIC,-,-,-,-,3.13 µg/mL
CC1CCC(NCCNCCCCc2ccccc2)CC1,-,-,MIC,-,-,-,-,50 µM
O=C(N/N=C/c1cccc(C(F)(F)F)c1)c1ccncc1,Erdman,-,MIC,-,-,-,-,0.2 µg/mL
CN=c1ncc2nc(-c3ccccc3)c(-c3ccccc3)n(C)c-2n1,H37Rv,-,MIC bound,-,-,-,BACTEC,>12.5 µg/mL
CCCCNC(=O)Oc1ccc(C2=Nc3c(cc(NC(=O)OCC)nc3N)N[C@@H]2C)cc1,H37Rv,-,EC50,-,-,-,-,>12.5 µg/mL
CC1(C)OC(CO)C2OC(C)(C)OCC2O1,H37Rv,-,inhibition,-,12.5 µg/mL,-,BACTEC,12%
O=C(NNCc1cccc(C(F)(F)F)c1)c1ccncc1,Erdman,inside macrophages,EC50,Macrophages,-,-,colony count,<0.005 µg/mL
Cc1ccc(NCCNCCO)c2c(=O)c3cc(O)ccc3sc12,H37Rv,-,MIC,VERO,-,-,BACTEC,12.5 µg/mL
CC(NCCNC1CCCCCCC1)C12CC3CC(CC(C3)C1)C2,-,-,MIC,-,-,-,-,50 µM
COc1ccc(CNCCNCCc2ccccc2F)cc1OC,-,-,MIC,-,-,-,-,25 µM
O=C1C=C(Nc2cnccn2)c2ccccc2C1=O,H37Rv,-,MIC,VERO,-,-,resazurin,1.56 µg/mL
CO[C@H]1/C=C/O[C@@]2(C)Oc3c(C)c(O)c4c(=O)c(c5oc6cc(N7CCN(CC(C)C)CC7)cc(=O)c6nc5c4c3=C2O)NC(=O)/C(C)=C\C=C\[C@H](C)[C@H](O)[C@@H](C)[C@@H](O)[C@@H](C)[C@H](OC(C)=O)[C@@H]1C,31 (rifampin-resistant),-,MBC,-,-,-,-,0.1 µg/mL
O=C1NCN(c2ccccc2)C12CCN(Cc1nc3cc([N+](=O)[O-])ccc3n1-c1ccccc1)CC2,H37Rv,-,MIC bound,-,-,-,BACTEC,>6.25 µg/mL
CCc1nc2ccccc2n1CCCCNc1ccc(-c2ccccn2)cc1,H37Rv,-,MIC90,-,-,WT,turbidity / fluorescence,0.55 µM
Cl.Cl.Cl.FC(F)(F)c1ccc2c(c1)N(CCCN1CCN(CCN3CCOCC3)CC1)c1ccccc1S2,H37Rv,-,MIC,-,-,-,BACTEC,12.5 µg/mL
NC(=O)c1cnccn1,Isolate K10447,-,MIC,-,-,-,-,>500 µg/mL
CCN(CC)CCSC(=S)N1c2ccccc2Sc2ccccc21,H37Rv,-,MIC bound,-,-,-,BACTEC,≤128 µg/mL
c1ccc(CCCNCCNCC23CC4CC(CC(C4)C2)C3)cc1,-,-,MIC,-,-,-,-,25 µM
Oc1cc2c(c3c(O)c4ccccc4c(O)c13)=NC1CCCCC1N=2,H37Rv,-,MIC bound,-,-,-,BACTEC,>12.5 µg/mL
CCCCC(CC)CN1CN(CC(CC)CCCC)CC(C)(NCCNCCc2ccccc2OC)C1,-,-,MIC,-,-,-,-,12.5 µM
O=[N+]([O-])c1ccccc1Sc1ccccc1[N+](=O)[O-],H37Rv,-,MIC bound,-,-,-,BACTEC,>12.5 µg/mL
COc1ccc(CCC2CCc3ccccc3N2C)cc1OC,MT1,-,MIC,-,-,-,-,161 µg/mL

8 of the rows above, restated:

| smiles | strain or isolate | conditions | read-out | cell line | dose | changes | method | value |
|---|---|---|---|---|---|---|---|---|
| O=C1NCN(c2ccccc2)C12CCN(Cc1nc3cc([N+](=O)[O-])ccc3n1-c1ccccc1)CC2 | H37Rv | - | MIC bound | - | - | - | BACTEC | >6.25 µg/mL |
| Cc1ccc(Sc2ncccn2)cc1 | H37Rv | - | inhibition | - | 6.25 µg/mL | - | - | 0% |
| CCc1nc2ccc(C)cc2n1CCCCSc1ccc(OC)cc1 | H37Rv | - | fold resistance | - | - | Rv1339 V90M | turbidity / fluorescence | 1.1 |
| COC(=O)C1(C(=O)OC)OC(c2ccccc2)C2C(=O)N(C)C(=O)C21 | H37Rv | - | MIC bound | - | - | - | BACTEC | >12.5 µg/mL |
| O=[N+]([O-])c1ccccc1Sc1ccccc1[N+](=O)[O-] | H37Rv | - | MIC bound | - | - | - | BACTEC | >12.5 µg/mL |
| O=C(NNCc1cccc(C(F)(F)F)c1)c1ccncc1 | Erdman | inside macrophages | EC50 | Macrophages | - | - | colony count | <0.005 µg/mL |
| Cl.NCCN1C(=O)S/C(=C/c2ccccc2)C1=O | H37Rv | - | MIC bound | - | - | - | BACTEC | >12.5 µg/mL |
| CCCCCCCCCCCNCCNCc1ccc(C(F)(F)F)cc1 | - | - | MIC | - | - | - | - | 25 µM |

Fold resistance has wild type as its base. MIC50, MIC90 and the like: level of inhibition, or share of isolates inhibited. MIC bound: limit read from a one-dose screen. ECn: concentration that inhibits the pathogen or its effect by n%. Rows are shuffled and stem from different studies. Percent inhibition refers to the dose given; in toxicity tests it is the harm to the cells.